PubChem BioAssay AID504761 – Drosophila RNAi Screening Center, 2011
In all, the deposit lists about 22,000 reagents; below is a random part of those with a known target gene and a result. Of all reagents, 116 (0.52%) are marked active. 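Calls depend on retest data that are not deposited; infection was ranked per plate without normalising between plates; the unit of the infection score is not given.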 The numbers tell different reagents against one gene apart. Further read-outs or replicates are left out here. Reagent sequences are not shown. Not given: the amount of reagent, the time to read-out.

Assay: 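Fly genes whose silencing reduces dengue virus type 2 infection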 (primary screen)
Cells: D.Mel-2 cells from Drosophila
Reagent: long dsRNA against Drosophila genes
Challenge: infection with dengue virus type 2; dose and infection time not stated
Detection: 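Per well on two replicate plates, imaging gave the percent of cells positive for viral envelope protein, ranked by infection, and a nuclear count of cells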
Reading the numbers: infection score: higher = more virus-infected cells
Call rule: 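Very low infection ranking in both replicate wells (chance probability at most 0.065), then a retest showing infection dropped 1.5-fold or more at p below 0.05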
Meaning of the calls: active = confirmed: knock-down lowers infection; inactive = not picked or not confirmed

infection score, replicate 1	infection score, replicate 2	call	gene	reagent no.
13.5	23.7	inactive	Tbce	1
18.5	7.49	inactive	sit	1
20.5	1.49	inactive	sit	2
2.04	2.99	inactive	PNPase	1
1.07	1.04	inactive	dnd	1
11.5	4.78	inactive	side-III	1
3.17	5.76	inactive	side-III	2
11.6	2.89	inactive	side-III	3
14.3	5.01	inactive	side-III	4
7.78	15.3	inactive	Cpr92F	1
3.58	1.95	inactive	lectin-21Ca	1
5.36	7.91	inactive	pic	1
3.02	11.3	inactive	Muc14A	1
2.33	1.13	inactive	Dlic	1
7.56	8.6	inactive	stmA	1
4.28	3.1	inactive	stmA	2
7.53	4.02	inactive	CG30394	1
1.25	5.49	inactive	CG30394	2
5.77	2.28	inactive	CG3306	1
1.19	1.74	inactive	Ubx	1
0.15	0.28	inactive	Ubx	2
3.89	5.29	inactive	CLIP-190	1
2.38	10.4	inactive	CLIP-190	2

Look-ups from the list:
Entry for side-III #1 under “infection score, replicate 2”: 4.78
Result for side-III #2 under “infection score, replicate 2”: 5.76
